Pooled drug test results. Numbers come from NIAID ChemDB, via PubChem.

Common to all: enzyme or target tests; organism: HIV-1; protein: Reverse transcriptase

Rows are shuffled and stem from different studies.

structure | changes | method | endpoint | strain | result
Nc1nc2c(ncn2[C@H]2CC[C@@H](COP(=O)(O)OP(=O)(O)OP(=O)(O)O)O2)c(=O)[nH]1 |  | nucleotide incorporation / radiometric | IC50 | WT | 0.05 µM
CC(C)=CCN1Cc2cccc3[nH]c(=S)n(c23)C[C@@H]1C |  | nucleotide incorporation | IC50 | HE | 2.5 µM
CCN1c2ncc(CCOc3ccc(CC(N)=O)c4ccccc34)cc2C(=O)N(C)c2cccnc21 | RT-K103N Y181C | nucleotide incorporation / radiometric | IC50 |  | <0.1 µM
O=P(O)(O)OP(=O)(O)O |  |  | Ki |  | 1200 µM
Nc1ncnc2c1ncn2[C@H]1CC[C@@H](COP(=O)(O)OP(=O)(O)OP(=O)(O)O)O1 |  | nucleotide incorporation / radiometric | Ki |  | 0.19 µM
O=C(c1cc(O)cc(O)c1)c1c(O)cc(O)cc1O |  | RT activity / radiometric | IC50 |  | 272 µM
CSCSc1cc(Cc2ccccc2)c(C(C)C)c(=O)[nH]1 |  | scintillation proximity | IC50 |  | 6.6 µM
Nc1ccn([C@@H]2CS[C@H](COP(=O)(O)OP(=O)(O)OP(=O)(O)O)O2)c(=O)n1 | RT-K65R | nucleotide incorporation / radiometric | Ki |  | 15 µM
CN(C)P(=O)(c1ccccc1)c1c(C(N)=O)[nH]c2ccc(Cl)cc12 | RT-Y181C |  | IC50 |  | >3.57 µM
CNc1ccc(Cl)cc1S(=O)(=O)c1ccccc1[N+](=O)[O-] | RT-V106A |  | IC50 |  | 2 µM
CC(C)=CCn1cc2c(c1)S(=O)(=O)c1cc(Cl)ccc1NC2=S |  | nucleotide incorporation / radiometric | IC50 |  | 4.2–5.6 µM
CCC1(c2ccc(COc3ccccc3)cc2)Oc2ccccc2-n2cccc2C1=O | RT-Y181I | nucleotide incorporation / radiometric | IC50 |  | 0.7 µM
Cc1cn([C@@H]2O[C@H](CO[Si](C)(C)C(C)(C)C)[C@@]3(OS(=O)(=O)C=C3N)[C@H]2O[Si](C)(C)C(C)(C)C)c(=O)[nH]c1=O |  | nucleotide incorporation / radiometric | IC50 | WT | 1.6 µM
C=C(C)CCOCc1ccc(C2(CC)Oc3ccccc3-n3cccc3C2=O)cc1 | RT-Y188L | nucleotide incorporation / radiometric | IC50 |  | >10 µM
COC(=O)C1(O)CC(O)C(OC(=O)/C=C/c2ccc(O)c(O)c2)C(OC(=O)/C=C/c2ccc(O)c(O)c2)C1 |  | nucleotide incorporation | IC50 |  | 94 µM
CCOC(=O)c1c[nH]cc1S(=O)(=O)c1cc(Cl)ccc1N |  | nucleotide incorporation / radiometric | IC50 |  | 7.8–10.4 µM
CCc1cc(CCc2nc3c(Cl)ccc(Cl)c3o2)c(=S)[nH]c1C | RT-Y181C | nucleotide incorporation | IC50 |  | 0.05 µM
Cc1cc(S(N)(=O)=O)ccc1NC(=O)COc1ccc(Cl)cc1C(=O)c1cc(Cl)cc(C#N)c1 | RT-V108I Y181C | fluorescence | IC50 |  | 0.0048 µM
CC(C)=CCc1c(O)cc2oc3ccc(O)cc3c(=O)c2c1O |  | RT activity / radiometric | IC50 |  | 58.24 µM
Cc1ccc2c(c1)n(CCNC(=S)Nc1ccc(Br)cn1)c(=O)c1cccn12 | RT-V106A | nucleotide incorporation | Ki |  | 0.08 µM
CCN1c2ncc(CCOc3ccc(S(N)(=O)=O)c4ccccc34)cc2C(=O)N(C)c2cccnc21 | RT-K103N Y181C | nucleotide incorporation / radiometric | IC50 |  | <0.1 µM
CC(CCN1CCC(c2ccccc2)CC1)(CN1C(=O)N[C@H](Cc2c[nH]c3ccccc23)C1=O)c1ccccc1 |  |  | IC50 |  | 3.32 µM
CCC1(c2ccc(COc3cccnc3)cc2)Oc2ccccc2-n2cccc2C1=O |  | nucleotide incorporation / radiometric | IC50 | WT | 0.4 µM
CCN1c2ncc(CCOc3ccc(CCC(=O)O)c4ccccc34)cc2C(=O)Nc2c(C)ccnc21 |  | nucleotide incorporation / radiometric | IC50 | WT | <0.1 µM
O=c1c2cccn2c2cc(Cl)c(Cl)cc2n1CCNC(=S)Nc1ccc(Br)cn1 | RT-K103N | nucleotide incorporation | Ki |  | 0.3 µM
Cc1cn([C@H]2C=C[C@@H](COP(=O)(O)OP(=O)(O)OP(=O)(O)O)O2)c(=O)[nH]c1=O | RT-A62V V75I F77L F116Y Q151M | nucleotide incorporation / radiometric | Ki |  | 2.8 µM
O=C(CSc1nnnn1-c1cccc(Cl)c1Cl)Nc1ccccc1[N+](=O)[O-] | RT-K103N |  | IC50 |  | 0.12 µM
CC(=O)O[C@H]1C2(C=O)C(C=O)=CC[C@@]1(C)CCC2[C@H](C)CCC=C(C)C |  | nucleotide incorporation / radiometric | IC50 |  | 40 µM
CCC1(c2cccc(Cl)c2)Cc2ccccc2-n2cccc2C1=O |  | nucleotide incorporation / radiometric | IC50 | WT | 3.3 µM
CC[C@@]1(c2ccccc2)Oc2cccnc2-n2cccc2C1=O | 1(RT) | RT activity | IC50 |  | >2 µM
O=C(O[C@@H]1[C@H](O)C[C@@](O)(C(=O)O)C[C@H]1OC(=O)c1cc(O)c(O)c(O)c1)c1cc(O)c(O)c(O)c1 |  | nucleotide incorporation | IC50 |  | 7.81 µM
CCC1(c2ccc(Cn3ccsc3=N)cc2)Oc2ccccc2-n2cccc2C1=O | RT-V106A | nucleotide incorporation / radiometric | IC50 |  | >10 µM
CCc1cc(CCc2nc3ccccc3o2)c(=S)[nH]c1C | RT-K103N | nucleotide incorporation | IC50 |  | 0.5 µM
CCN1c2ncccc2C(=O)N(C)c2ccc(-c3cc[nH]c3)nc21 | RT-Y181C | nucleotide incorporation | IC50 |  | 0.05 µM
Cc1cn([C@H]2C=C[C@@H](COP(=O)(O)OP(=O)(O)OP(=O)(O)O)O2)c(=O)[nH]c1=O |  | nucleotide incorporation / radiometric | IC50 | WT | 0.19 µM
O=c1c2cccn2ccn1CCNC(=S)Nc1ccc(Br)cn1 | RT-V106A | nucleotide incorporation | Ki |  | 0.095 µM
O=C(O)C1=C[C@@H](O)[C@@H](O)[C@H](OC(=O)c2cc(O)c(O)c(O)c2)C1 |  | nucleotide incorporation | IC50 |  | 92 µM
COc1c(O)cc(O)c2c(=O)c3cc(O)ccc3oc12 |  | RT activity / radiometric | IC50 |  | 63.92 µM
Cc1cc(C)c(-n2nnnc2SCC(=O)Nc2ccc([N+](=O)[O-])cc2C)c(C)c1 | RT-K103N |  | IC50 |  | 0.495 µM
CCN1c2ncc(CCOc3ccc(C(=O)O)c4ccccc34)cc2C(=O)Nc2c(C)cc(Cl)nc21 | RT-Y188L | nucleotide incorporation / radiometric | IC50 |  | >1 µM
Cc1cc(C)c(-n2nnnc2SCC(=O)Nc2ccccc2I)c(C)c1 | RT-K103N |  | IC50 |  | 0.093 µM
Nc1ccn([C@H]2CC[C@@H](COP(=O)(O)OP(=O)(O)OP(=O)(O)O)O2)c(=O)n1 |  | nucleotide incorporation / radiometric | Ki |  | 0.27 µM
Cc1cc(C)c(-n2nnnc2SCC(=O)Nc2ccccc2Br)c(C)c1 | RT-K103N |  | IC50 |  | 0.035 µM
CCC1(c2cccc(COc3ccccc3)c2)Oc2ccccc2-n2cccc2C1=O |  | nucleotide incorporation / radiometric | IC50 | WT | 0.8 µM
CCN1c2ncccc2C(=O)N(C)c2ccc(-c3cccc(N)c3)nc21 | RT-Y181C | nucleotide incorporation | IC50 |  | 0.18 µM
O=C(OC1[C@H](OC(=O)c2cc(O)c(O)c(O)c2)CC(O)(C(=O)O)C[C@H]1OC(=O)c1cc(O)c(O)c(O)c1)c1cc(O)c(O)c(O)c1 |  | nucleotide incorporation | IC50 |  | 0.08 µM
O=C(O)Cn1cnc2c(=O)[nH]c(NC(=O)OCc3ccccc3)nc21 | K103N | nucleotide incorporation / radiometric | Ki | NNRTI-resistant | 38.6 µM
CC(C)=CCN(C)C(C)Cn1c(=S)[nH]c2ccccc21 |  | RT activity | IC50 |  | >100 µg/mL
O=C(CSc1nnnn1-c1cc(F)ccc1Cl)Nc1ccccc1[N+](=O)[O-] |  |  | IC50 |  | 0.01 µM
CCC(C)Oc1nc(N)cc(S(=O)(=O)c2cccc(C)c2)n1 |  | nucleotide incorporation / radiometric | IC50 | IIIB | 26.5 µM
CC(C)(C)OC(=O)Cn1cnc2c(=O)[nH]c(NC(=O)OCc3ccccc3)nc21 |  | nucleotide incorporation / radiometric | Ki | WT | 400 µM
CCN1c2ncc(CCOc3ccc(CCC(=O)O)c4ccccc34)cc2C(=O)N(C)c2ccc(C)nc21 |  | nucleotide incorporation / radiometric | IC50 | WT | <0.1 µM
O=C1c2ccncc2C(=O)N1CCNC(=S)Nc1ccc(Br)cn1 | RT-L100I | nucleotide incorporation | Ki |  | >5 µM
CC(Cn1c(=S)[nH]c2ccccc21)NCc1ccccc1 |  | RT activity | IC50 |  | >100 µg/mL

A second listing of 6 rows from above:

Nc1ccn([C@H]2CC[C@@H](COP(=O)(O)OP(=O)(O)OP(=O)(O)O)O2)c(=O)n1 ; method: nucleotide incorporation / radiometric ; endpoint: Ki ; result: 0.27 µM
Cc1cn([C@H]2C=C[C@@H](COP(=O)(O)OP(=O)(O)OP(=O)(O)O)O2)c(=O)[nH]c1=O ; method: nucleotide incorporation / radiometric ; endpoint: IC50 ; strain: WT ; result: 0.19 µM
O=c1c2cccn2c2cc(Cl)c(Cl)cc2n1CCNC(=S)Nc1ccc(Br)cn1 ; changes: RT-K103N ; method: nucleotide incorporation ; endpoint: Ki ; result: 0.3 µM
O=C(O)Cn1cnc2c(=O)[nH]c(NC(=O)OCc3ccccc3)nc21 ; changes: K103N ; method: nucleotide incorporation / radiometric ; endpoint: Ki ; strain: NNRTI-resistant ; result: 38.6 µM
Cc1cn([C@@H]2O[C@H](CO[Si](C)(C)C(C)(C)C)[C@@]3(OS(=O)(=O)C=C3N)[C@H]2O[Si](C)(C)C(C)(C)C)c(=O)[nH]c1=O ; method: nucleotide incorporation / radiometric ; endpoint: IC50 ; strain: WT ; result: 1.6 µM
CC[C@@]1(c2ccccc2)Oc2cccnc2-n2cccc2C1=O ; changes: 1(RT) ; method: RT activity ; endpoint: IC50 ; result: >2 µM

Two numbers with a dash give a range or band. An empty or dashed field is not shown. ICn is the concentration giving n% inhibition.